Reference: publication PMC9654784, “Targeting SARS-CoV-2 nsp13 Helicase and Assessment of Druggability Pockets: Identification of Two Potent Inhibitors by a Multi-Site In Silico Drug Repurposing Approach” (Molecules, 2022)

What was measured:
[1] = target: T1, SARS-CoV-2 nsp13 (Severe acute respiratory syndrome coronavirus 2, UniProt P0DTD1); assay: SARS-CoV-2 nsp13 unwinding-associated activity; assay type: biochemical; details: concentration required to inhibit nsp13-associated unwinding activity by 50%; 1 nM nsp13, 1 mM ATP, 750 nM DNA substrate
Protocol: (§1) The SARS-CoV-2 nsp13 his-tagged was expressed in E. coli BL21 Rosetta 2 cells from a pNIC-ZB (addgene #159614). A purification protocol was adopted from Newman et al.. Terrific Broth media was used to culture the cells at 37 °C and at 200 rpm until 1.6 OD600. Then, protein expression was induced with […] for 16 h at 18 °C, at 200 rpm, and then pelleted and resuspended in lysis buffer (50 mM HEPES pH 7.5, 500 mM NaCl, 5% Glycerol, 10 mM Imidazole, 0.5 mM TCEP, Merck Protease inhibitor cocktail III, 1:500). After sonication and clarification at 15,000× g for 30 min, the crude extract was used for a batch binding of 40 min in a three-dimensional rotating mixer with 5 mL of Ni-sepharose (cytiva) under orbital. […] The elution fraction was analyzed for purity by SDS page, and clean fractions were pooled and dialyzed against a desalting buffer containing 25 mM HEPES pH 7.5, 250 mM NaCl, 20% Glycerol, and 0.25 mM TCEP. […]
The SARS-CoV-2 nsp13 unwinding-associated activity was measured in black 384-well plates (PerkinElmer). […] Compounds SSYA10-001 and Licoflavone C were used as positive controls of inhibition; the reaction lasted for 15 min at 37 °C, and then the products were measured with Victor Nivo (Perkin) at 530/580 nm.

[2] = target: T1, SARS-CoV-2 nsp13; assay: SARS-CoV-2 nsp13 ATPase (NTPase)-associated activity; assay type: biochemical; details: concentration required to inhibit nsp13-associated ATPase activity by 50%; 25 nM nsp13, 400 µM ATP
Protocol: as §1, with “orbital. Then, the tubes were centrifuged at 700× g at 4 °C for 5 min, and the resin was loaded onto a gravity flow column (econo column BioRad) connected to a BioLogic LP (BioRad).” for “orbital.”
The SARS-CoV-2 nsp13 helicase-associated activity was measured in a transparent 96-well plate (PerkinElmer), as described in [34]. […] The products were measured with Victor Nivo (Perkin) at 650 nm.

For “nicotinamide adenine dinucleotide [NADH]”, the IC50 [1] was > 30 µM and the IC50 [2] was > 30 µM.
